Source: PubChem BioAssay AID504761 (Drosophila RNAi Screening Center, 2011)
In all, the deposit lists about 22,000 reagents; this is an unselected part of those that have a named target and a result. Over the whole deposit, 116 (0.52%) were called active. 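Calls depend on retest data that are not deposited; infection was ranked per plate without normalising between plates; the unit of the infection score is not given.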 Raw values vary from plate to plate and are shown uncorrected. Entries without a mark were called inactive. Further read-outs or replicates are left out here. Reagent sequences are not shown. Not given: the amount of reagent, the time to read-out.

Aim: 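Insect host genes that dengue virus relies on to spread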 (primary screen)
System: D.Mel-2 cells from Drosophila
Reagents: long dsRNA against Drosophila genes
Challenge: infection with dengue virus type 2; dose and infection time not stated
Read-out: 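Cells stained for dengue envelope protein and imaged; percent of infected cells per well on duplicate plates, ranked by infection, with stained nuclei counted for cell number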
Reading the numbers: infection score: higher = more virus-infected cells; cell count: higher = more cells in the well
Hit rule: 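Low infection ranks in the two replicates (chance level up to 0.065) followed by a retest with a 1.5-fold or larger significant decrease, p below 0.05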
Meaning of the calls: active = confirmed: knock-down lowers infection; inactive = not picked or not confirmed

predicted target	dsRNA	infection score, replicate 1	infection score, replicate 2	cell count, replicate 1
Drep2	DRSC07528	10.9	7.55	5360
Drep2	DRSC25612	4.16	2.92	5557
CG4945	DRSC06904	9.53	6.05	6526
CG4945	DRSC29644	15.3	1.06	5441
alc	DRSC07062	7.21	13.3	6230
alc	DRSC21464	2.11	2.65	6393
alc	DRSC23316	1.2	0.93	4331
TyrRS	DRSC10430	6.97	13.4	5965
TyrRS	DRSC27145	4.39	5.93	6328
RpL35A	DRSC12302	4.96	5.13	3248
CG7299	DRSC03043	2.87	3.35	6695
CG7299	DRSC25553	6.62	6.55	7028
Cpr76Ba	DRSC11060	1.12	3.27	6187
Cpr76Ba	DRSC27858		3.09	488
Drak	DRSC19778		3.78	410
Drak	DRSC23298	4.95	3.97	6286
Drak	DRSC28871	1.46		893
TBPH	DRSC04660	11.3	0.78	5824
TBPH	DRSC28032	9.94	17.8	2877
CG18190	DRSC06714	2.7	4.18	6190
CG18190	DRSC27920	14	24.4	5731
rempA	DRSC00327	20.9	11	4135
Ccm3	DRSC15711	9.39	7.6	6068
CG9795	DRSC12336	11.6	24.3	6401
CG9795	DRSC24244	10.3	4.7	5782
CG5172	DRSC19936	3.26	4.31	6265
CG5172	DRSC23493	8.26	7.66	5668
CG31534 (retired record)	DRSC12141	6.49	14.8	6668
CG31534 (retired record)	DRSC12289	7.86	4.52	5041
CG31534 (retired record)	DRSC27803	6.02	7.97	6459
CG12061	DRSC20715	1.37	4.21	5769
ms(3)76Ba	DRSC10091	2.17	1.33	6370
Ugt37D1	DRSC02645	2.99	12.9	6161
Ugt37D1	DRSC23980	2.7	9.92	6338
wuc	DRSC06152	4.34	7.51	6977
CG14673 (retired record)	DRSC12259	8.48	6.47	5922
Nedd8	DRSC02092	1.41	16.2	5683
CG1690	DRSC06636	8.13	27.5	6830
CG13858 (retired record)	DRSC14708	5.25	3.56	6480
CG13858 (retired record)	DRSC14709	3.12	2.3	6258
CG13858 (retired record)	DRSC14710	1.98	2.42	6816
CG13858 (retired record)	DRSC14711	2.11	3.28	6778
CG9395	DRSC03218	7.01	3.01	6779
CG9395	DRSC26576	2.46	6.66	2479
CG1764	DRSC19779	1.06	6.02	6870
CG2120	DRSC18207	1.47	3.33	6584
CG2120	DRSC26944	7.82	3.38	6497
CR14117	DRSC10121	0.67	0.52	6442
CR14117	DRSC25950	1.23	9.62	6676
Rdh	DRSC08063	5.02	3.94	4844
Or49a	DRSC07493	18.3	3.93	2565
Dmtn	DRSC12513	10.2	13.8	4813
Dmtn	DRSC28385	12.7	6.94	3619
haf	DRSC00381	1.87	3.24	6640
CG31792	DRSC02604	0.75	10.6	6816
Jasper	DRSC16352	9.27	3.61	1856
glu	DRSC03539	12.6	2.41	4728
glu	DRSC26151	6.02	1.13	5711
CG15358	DRSC00388	21.6	3.44	6853
CG31205	DRSC13438	1.92	2.11	6391
CG31205	DRSC26824	6.89	11.9	6674
Hr83	DRSC12521	4.5	14.3	5467
Hr83	DRSC25662	7.66	7.88	5251
Ran	DRSC20364	16.7	13	1132
Ran	DRSC28160	11.3	12.2	1602
Pp1-87B	DRSC16794	13.4	15.8	1369
Pp1-87B	DRSC23299	8.87	2.86	5896
Pp1-87B	DRSC27290	19.7	14	4878
CG12446	DRSC20618	5.2	1.61	6215
CG31928	DRSC00293	2.73	3.82	6956
TwdlM	DRSC15810	2.36		1314
CG32055	DRSC10666	15.6	17.4	5537
CG9624	DRSC16523	2.74	1.28	6137
phtm	DRSC20237	7.82	4.69	2789
phtm	DRSC26997	17.9	5.44	6325

Taken from above.
For “infection score, replicate 1”, CG7299 [DRSC25553] is entered as 6.62
Ran [DRSC28160], cell count, replicate 1 = 1602
Value for RpL35A [DRSC12302] in “infection score, replicate 2”: 5.13
Entry for Drak [DRSC28871] under “cell count, replicate 1”: 893
Under “cell count, replicate 1”, Or49a [DRSC07493] has 2565
